This assay addresses RNA-directed RNA polymerase (Influenza A virus (strain A/Puerto Rico/8/1934 H1N1), UniProt P03428+P03431+P03433). The assay can be described thus: Inhibition of Influenza A virus RdRp transfected in HEK293T cells co-expressing PA/PB1/PB2/NP/firefly luciferase/Renilla luciferase assessed as impaired nuclear import preincubated for 4 hrs followed by medium replacement with compound measured after 20 hrs by minireplicon assay. The format is cell-based. On the technique in general: In antiviral work, replicon cells carry a viral genome segment that copies itself.

Amino acid sequences for entries named in this document (tags omitted). A change or cut given only in a name is not applied to a line headed by its entry.
UniProt P03428: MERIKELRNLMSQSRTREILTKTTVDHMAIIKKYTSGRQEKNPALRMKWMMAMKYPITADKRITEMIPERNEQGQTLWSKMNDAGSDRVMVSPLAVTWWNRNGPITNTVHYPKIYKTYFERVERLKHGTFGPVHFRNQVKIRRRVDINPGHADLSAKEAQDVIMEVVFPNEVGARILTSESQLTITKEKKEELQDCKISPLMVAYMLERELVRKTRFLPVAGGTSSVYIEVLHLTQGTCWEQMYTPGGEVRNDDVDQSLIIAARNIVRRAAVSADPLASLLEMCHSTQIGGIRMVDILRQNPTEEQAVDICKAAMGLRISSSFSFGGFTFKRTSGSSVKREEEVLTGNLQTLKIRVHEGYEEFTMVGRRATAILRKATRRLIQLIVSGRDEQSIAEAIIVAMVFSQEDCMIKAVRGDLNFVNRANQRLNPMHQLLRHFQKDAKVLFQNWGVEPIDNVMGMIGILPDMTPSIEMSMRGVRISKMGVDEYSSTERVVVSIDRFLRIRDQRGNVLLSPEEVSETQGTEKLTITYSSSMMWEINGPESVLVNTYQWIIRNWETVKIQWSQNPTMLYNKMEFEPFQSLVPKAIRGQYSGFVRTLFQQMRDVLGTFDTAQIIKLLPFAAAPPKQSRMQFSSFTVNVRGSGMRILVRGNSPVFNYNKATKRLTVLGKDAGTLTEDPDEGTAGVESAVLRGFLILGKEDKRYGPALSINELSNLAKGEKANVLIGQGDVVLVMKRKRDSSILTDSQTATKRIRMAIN
UniProt P03431: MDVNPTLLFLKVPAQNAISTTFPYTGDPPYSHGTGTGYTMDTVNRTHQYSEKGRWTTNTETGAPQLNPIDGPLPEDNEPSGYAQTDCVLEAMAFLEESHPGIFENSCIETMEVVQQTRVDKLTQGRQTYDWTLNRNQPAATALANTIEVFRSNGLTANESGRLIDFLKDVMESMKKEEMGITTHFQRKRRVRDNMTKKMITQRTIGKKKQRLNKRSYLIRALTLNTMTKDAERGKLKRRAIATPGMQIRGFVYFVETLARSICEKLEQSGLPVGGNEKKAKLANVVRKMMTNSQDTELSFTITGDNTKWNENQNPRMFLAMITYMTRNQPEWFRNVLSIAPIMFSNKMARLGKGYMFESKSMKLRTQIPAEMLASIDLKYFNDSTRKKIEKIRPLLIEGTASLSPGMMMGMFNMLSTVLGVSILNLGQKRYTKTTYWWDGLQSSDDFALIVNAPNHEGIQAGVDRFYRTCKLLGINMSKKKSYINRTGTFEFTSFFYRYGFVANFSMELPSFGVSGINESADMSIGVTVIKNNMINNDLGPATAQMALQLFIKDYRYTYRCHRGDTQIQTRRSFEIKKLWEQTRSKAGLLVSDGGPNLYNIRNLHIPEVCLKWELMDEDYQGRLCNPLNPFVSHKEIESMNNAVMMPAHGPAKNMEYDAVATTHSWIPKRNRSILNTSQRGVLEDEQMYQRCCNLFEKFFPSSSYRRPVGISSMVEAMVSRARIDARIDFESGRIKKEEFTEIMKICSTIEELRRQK

pEC50: −log10 of the molar value.

For the compound `NC(=O)c1nc(F)c[nH]c1=O`, the pEC50 is 4.97.

The pEC50 is the negative decadic logarithm of the EC50, by convention in mol/L.

These data come from ChEMBL document CHEMBL5614404, “Optimization of potent, broad-spectrum, and specific anti-influenza compounds targeting RNA polymerase PA-PB1 heterodimerization” (Eur J Med Chem, 2024).
